Data as given in patent US20260207641A1, “COMBINATION THERAPY FOR CANCER USING ROS-ACTIVATED PRODRUGS AND ROS-AMPLIFYING THERAPEUTICS” (UWM Research Foundation, Inc., priority 2023, published 2026).
Values joined by “and” are separate entries in the source; they are usually repeats but may differ in a detail not shown here. Equal entries are not always repeated. Where two headings read alike, the source gives them in different places.

Assays:
MDA-MB-468 cells [1] = assay: Alkaline comet assay (DNA damage); assay type: cell-based, human; conditions: individual maximum safe doses; stated for all four cell lines alike
U-87 MG cells = assay: Cytotoxicity dose response (CellTiter-Glo, 48 h); assay type: cell-based; conditions: for IC50: single agent, 48 h
MDA-MB-468 cells [2] = conditions: FAN-NM-CH3 at a dose of 5 M (so in the source)
[3] = tested on: MDA-MB-468 breast cancer xenograft; assay: In vivo xenograft efficacy study; parameters: species or system immune-deficient female nude mice; conditions: Vitamin C 500 mg/kg, FAN-NM-CH3 3 mg/kg
MDA-MB-231 cells = assay: Cytotoxicity dose response (CellTiter-Glo, 48 h); assay type: cell-based, human; conditions: single agent, MDA-MB-231, 48 h
MDA-MB-468 cells [4] = assay: Cytotoxicity dose response (CellTiter-Glo, 48 h); assay type: cell-based, human
MCF7 cells = assay: Cytotoxicity dose response (CellTiter-Glo, 48 h); assay type: cell-based, human
MDA-MB-436 cells = assay: Cytotoxicity dose response (CellTiter-Glo, 48 h); assay type: cell-based, human; conditions: single agent, MDA-MB-436, 48 h
MCF 10A (normal cells) = assay: Cytotoxicity dose response (CellTiter-Glo, 48 h); assay type: cell-based, human; conditions: for IC50: single agent, MCF 10A normal cells, 48 h
MDA-MB-468 cells [5] = conditions: cited from earlier work

Cc1cc(N(CCCl)CCCl)ccc1B(O)O
observable DNA damage (MDA-MB-468 cells [1]): did not show any observable DNA damage | maximum safe dose (U-87 MG cells): 5 µM | IC50 (U-87 MG cells): 24.8 µM | IC50 (U-87 MG cells; listed as Prodrug): 24.8 µM | toxicity (MDA-MB-468 cells [2]): high toxicity | effect on tumor size ([3]; after 3 weeks of IP treatment, combination with Vitamin C 1 h before, vs vehicle): observable inhibitory effects on the tumor size | signs of toxicity ([3]; xenograft mice, IP): neither of the groups showed any signs of toxicity | IC50 (MDA-MB-231 cells): 3.45 µM | MSD (Maximum Safe Dose) (MDA-MB-468 cells [4]; Cancer Cells (MDA-MB-468), no discernible toxicity): 1 µM | IC50 (MDA-MB-468 cells [4]; single agent, MDA-MB-468 cancer cells, 48 h): 3.02 µM | maximum safe dose (MCF7 cells; MCF7): 2 µM | IC50 (MCF7 cells; single agent, MCF7, 48 h): 6.6 µM | IC50 (MDA-MB-436 cells): 3.65 µM | MSD (Maximum Safe Dose) (MCF 10A (normal cells); Normal Cells (MCF 10A), no discernible toxicity): 6 µM | IC50 (MCF 10A (normal cells)): 48 µM | IC50 (MCF 10A (normal cells); listed as Prodrug): 48 µM and 48.4 µM | IC50 (MDA-MB-468 cells [5]; MDA-MB-468 cell line, earlier reported values): 3.1 µM | toxicity relative to melphalan (MDA-MB-468 cells [5]; times more toxic than melphalan, MDA-MB-468): 16 | potency/toxicity relative to chlorambucil (MDA-MB-468 cells [5]; times more toxic/potent than chlorambucil, MDA-MB-468): 10
